Molecular target: T1, Aβ […] peptide (Homo sapiens)
T1 construct: flowing pE3-42 Aβ peptide or Aβ 1-40 peptide, starting from 100 nM
Assay: Binding by surface plasmon resonance (BIACORE 3000)
Conditions: peptide 100 nM down to 3.125 nM, 25° C.
Experimental: The binding affinity and kinetics of an anti-[…] […] The binding affinity is measured by capturing the anti-[…] Aβ antibody via immobilized protein A on a BIACORE® CMS chip, and flowing pE3-42 Aβ peptide or Aβ 1-40 peptide, starting from 100 nM in 2-fold serial dilution down to 3.125 nM. The experiments are carried out at 25° C. in HBS-EP buffer (GE Healthcare BR100669; 10 mM HEPES, 150 mM NaCl, 3 mM EDTA, 0.05% surfactant P20, pH 7.4). For each cycle, the antibody is captured with 5 μL injection of antibody solution at a 10 μg/mL concentration with 10 μL/min flow rate. The peptide is bound with 250 μL injection at 50 μL/min, and then dissociated for 10 minutes. The chip surface is regenerated with 5 μL injection of glycine buffer at pH 1.5 at 10 μL/mL flow rate. The data is fit to a 1:1 Langmiur binding model to derive kon, koff, and to calculate KD.

Row | Molecule | binding to Aβ 1-40
1 | Antibody I: anti-N3pGlu Abeta antibody with light chain SEQ ID NO: 12 and heavy chain SEQ ID NO: 11 (antibody) heavy: QVQLVQSGAEVKKPGSSVKVSCKASGYTFTDYYINWVRQAPGQGLEWMGWINPGSGNTKYNEKFKGRVTITADESTSTAYMELSSLRSEDTAVYYCTREGETVYWGQGTLVTVSSASTKGPSVFPLAPSSKSTSGGTAALGCLVKDYFPEPVTVSWNSGALTSGVHTFPAVLQSSGLYSLSSVVTVPSSSLGTQTYICNVNHKPSNTKVDKKV[human IgG1 Fc not shown] light: DVVMTQSPLSLPVTLGQPASISCKSSQSLLYSRGKTYLNWFQQRPGQSPRRLIYDVSKLDSGVPDRFSGSGSGTDFTLKISRVEAEDVGVYYCVQGTHYPFTFGQGTKLEIKRTVAAPSVFIFPPSDEQLKSGTASVVCLLNNFYPREAKVQWKVDNALQSGNSQESVTEQDSKDSTYSLSSTLTLSKADYEKHKVYACEVTHQGLSSPVTKSFNRGEC | No appreciable binding
2 | Antibody II: anti-N3pGlu Abeta antibody with light chain SEQ ID NO: 13 and heavy chain SEQ ID NO: 11 (antibody) heavy: QVQLVQSGAEVKKPGSSVKVSCKASGYTFTDYYINWVRQAPGQGLEWMGWINPGSGNTKYNEKFKGRVTITADESTSTAYMELSSLRSEDTAVYYCTREGETVYWGQGTLVTVSSASTKGPSVFPLAPSSKSTSGGTAALGCLVKDYFPEPVTVSWNSGALTSGVHTFPAVLQSSGLYSLSSVVTVPSSSLGTQTYICNVNHKPSNTKVDKKV[human IgG1 Fc not shown] light: DIQMTQSPSTLSASVGDRVTITCKSSQSLLYSRGKTYLNWLQQKPGKAPKLLIYAVSKLDSGVPSRFSGSGSGTEFTLTISSLQPDDFATYYCVQGTHYPFTFGQGTKLEIKRTVAAPSVFIFPPSDEQLKSGTASVVCLLNNFYPREAKVQWKVDNALQSGNSQESVTEQDSKDSTYSLSSTLTLSKADYEKHKVYACEVTHQGLSSPVTKSFNRGEC | No appreciable binding

— patent publication US20190231791A1, “Combination Therapy” (Eli Lilly and Company, priority 2016, published 2019)
